This data set concerns zebrafish embryos aged 72 hpf. To be noted: in vivo.

Take Niguldipine-HCl [compound 1358]: the “Atrium and ventricle rhythmicity pattern after 30 min incubation” value is given as 1:1 rhythm, but the heart slowed nonetheless.

(Values after PMC6627553, “Cardiac Rhythm and Molecular Docking Studies of Ion Channel Ligands with Cardiotoxicity in Zebrafish” (Cells, 2019).)
